System: HIV-1 capsid LEN resistance mutations
Settings: HTE participants (Example 4)
Excerpt: In HTE participants (Example 4), the resistance analysis population (RAP) during the oral bridging period included 9 participants (16%, 9/57) who met the criteria for resistance analysis, including 4 participants also present in the previous analysis. […];

Structure (SMILES): CC(C)(C#Cc1ccc(-c2ccc(Cl)c3c(NS(C)(=O)=O)nn(CC(F)(F)F)c23)c([C@H](Cc2cc(F)cc(F)c2)NC(=O)Cn2nc(C(F)(F)F)c3c2C(F)(F)[C@@H]2C[C@H]32)n1)S(C)(=O)=O [LEN, N—((S)-1-(3-(4-chloro-3-(methylsulfonamido)-1-(2,2,2-trifluoroethyl)-1H-indazol-7-yl)-6-(3-methyl-3-(methylsulfonyl)but-1-yn-1-yl)pyridin-2-yl)-2-(3,5-difluorophenyl)ethyl)-2-((3bS,4aR)-5,5-difluoro-3-(trifluoromethyl)-3b,4,4a,5-tetrahydro-1H-cyclopropa [3,4]cyclopenta [1,2-c]pyrazol-1-yl) acetamide]
- Participants in the RAP who developed resistance to LEN: Six of the 9

From patent US20240390349A1, “DOSING REGIMEN OF CAPSID INHIBITOR” (priority 2023, published 2024)
